Measured data: PubChem BioAssay AID504761 (Drosophila RNAi Screening Center, 2011)

Aim: 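Genome-wide fly cell screen for genes dengue virus requires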 (primary screen)
Cells: D.Mel-2 cells from Drosophila
Knock-down reagent: long dsRNA against Drosophila genes
Challenge: infection with dengue virus type 2; dose and infection time not stated
Read-out: 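Per well on two replicate plates, imaging gave the percent of cells positive for viral envelope protein, ranked by infection, and a nuclear count of cells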
Reading the numbers: infection score: higher = more virus-infected cells; cell count: higher = more cells in the well
Call rule: 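Very low infection ranking in both replicate wells (chance probability at most 0.065), then a retest showing infection dropped 1.5-fold or more at p below 0.05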
Meaning of the calls: active = confirmed: knock-down lowers infection; inactive = not picked or not confirmed
The screen tested about 22,000 reagents; shown is a random part of those that have a named target and a result. Over the whole deposit, 116 (0.52%) were called active. 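Calls depend on retest data that are not deposited; infection was ranked per plate without normalising between plates; the unit of the infection score is not given.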 Raw values vary from plate to plate and are shown uncorrected. A number with no mark means an inactive call. The record does not give: the amount of reagent, the time to read-out.

Gene	DRSC id	infection score, replicate 1	infection score, replicate 2	cell count, replicate 1	cell count, replicate 2
Sec15 (GeneID 42499)	DRSC16179	4.76	13.4	1785	5084
Sec15 (GeneID 42499)	DRSC29670	14.7	5.58	3296	1290
CG7182 (GeneID 38944)	DRSC10780	4.26	4.13	6832	6971
CG7182 (GeneID 38944)	DRSC24776	2.09	1.05	6809	6461
CG13203 (GeneID 36229)	DRSC06327	10.9	3.54	6877	6301
CG13203 (GeneID 36229)	DRSC29202	13.7	13.4	5063	5529
CG7568 (GeneID 43482)	DRSC16259	6.91	1.16	4267	517
CG7568 (GeneID 43482)	DRSC28378		10.1	364	6048
salto (GeneID 36332)	DRSC06291	4.01	17.6	6114	6304
salto (GeneID 36332)	DRSC29983	6.01	10.7	6110	5715
nullo (GeneID 31652)	DRSC18807	3.04	2.39	6352	6749
nullo (GeneID 31652)	DRSC29660	5.8	2	6221	549
CG31680 (GeneID 318881)	DRSC21878	10.5	7.81	6418	6286
Mondo (GeneID 35402)	DRSC02668	16.4	6.35	2394	2046
Mondo (GeneID 35402)	DRSC22006	3.58	21	5923	6175
Mondo (GeneID 35402)	DRSC26287	9	3.34	5825	4998
SRPK (GeneID 36706)	DRSC07090	6.79	13.1	5802	6375
SRPK (GeneID 36706)	DRSC28162	7.73	11.3	6353	6348
SkpE (GeneID 32997)	DRSC19431	15.5	2.8	4505	5994
CG5418 (GeneID 34663)	DRSC02857	2.61	1.42	6321	6604
CG5418 (GeneID 34663)	DRSC25643	4.61	2.45	6510	6500
spartin (GeneID 40582)	DRSC12187	4.38	11.8	6784	6087
spartin (GeneID 40582)	DRSC27182	2.23	29.3	7035	6574
RpS15 (GeneID 36851)	DRSC07151	16.7		2620	480
RpS15 (GeneID 36851)	DRSC23462	4.78	4.87	1840	2236
M6 (GeneID 40383)	DRSC11869	4.79	14.6	5944	5409
mRpS6 (GeneID 38535)	DRSC08470	1.21	0.43	5779	5787
mRpS6 (GeneID 38535)	DRSC29280	14	14.8	5128	4202
Arc2 (GeneID 36597)	DRSC06436	10.7	6.39	6277	6963
Arc2 (GeneID 36597)	DRSC28707	8.25	7.3	5408	5398
otk2 (GeneID 36284)	DRSC07303	6.7	4.05	6571	6833
CG10467 (GeneID 38697)	DRSC09728	3.65	4.68	5868	5427
PH4alphaNE2 (GeneID 43628)	DRSC16544	18.6		3857	357
PH4alphaNE2 (GeneID 43628)	DRSC24689	3.1	1.62	6391	6116
Jig (GeneID 41762)	DRSC14974	6.27	15.6	6870	6557
peb (GeneID 31391)	DRSC23057	0.28	2.74	6099	6607
peb (GeneID 31391)	DRSC26695	2.23	4.06	6286	6229
Klp59D (GeneID 37674)	DRSC04118	13.5	14.8	5578	6083
Klp59D (GeneID 37674)	DRSC24436	13.2	9.75	6014	6197
Mst33A (GeneID 34578)	DRSC03371	4	7.69	6556	6608
Mst33A (GeneID 34578)	DRSC27156	2.57	3.37	7204	7183
Yp2 (GeneID 31938)	DRSC18732	3.72	4.16	6425	6906
Yp2 (GeneID 31938)	DRSC29289	14.3	14.3	6504	1792
dnc (GeneID 31309)	DRSC17759	1.77	1.36	6162	6961
dnc (GeneID 31309)	DRSC17911	4.07	2.03	6442	6348
dnc (GeneID 31309)	DRSC18764	9.5	0.84	3030	6772
CG13868 (GeneID 37302)	DRSC06427	12	12.4	4194	4032
Eno (GeneID 33351)	DRSC00750	8.44	5.7	6543	6580

Continued (9 carried over from the part before).
Gene	DRSC id	infection score, replicate 1	infection score, replicate 2	cell count, replicate 1	cell count, replicate 2
Mst33A (GeneID 34578)	DRSC03371	4	7.69	6556	6608
Mst33A (GeneID 34578)	DRSC27156	2.57	3.37	7204	7183
Yp2 (GeneID 31938)	DRSC18732	3.72	4.16	6425	6906
Yp2 (GeneID 31938)	DRSC29289	14.3	14.3	6504	1792
dnc (GeneID 31309)	DRSC17759	1.77	1.36	6162	6961
dnc (GeneID 31309)	DRSC17911	4.07	2.03	6442	6348
dnc (GeneID 31309)	DRSC18764	9.5	0.84	3030	6772
CG13868 (GeneID 37302)	DRSC06427	12	12.4	4194	4032
Eno (GeneID 33351)	DRSC00750	8.44	5.7	6543	6580
ocn (GeneID 43567)	DRSC17020	2.07	4.09	6618	6447
grsm (GeneID 41587)	DRSC14165	2.18	7.61	6097	6561
grsm (GeneID 41587)	DRSC14843	1.25	7.88	6642	6976
AdamTS-B (GeneID 31490)	DRSC18346	4.38	7.68	6503	6807
AdamTS-B (GeneID 31490)	DRSC27769	5.41	2.64	6785	6628
Spn28B (GeneID 34035)	DRSC02982	2.99	7.09	6222	5910
CG9500 (GeneID 33888)	DRSC03237	1.73	2.48	6299	6617
cerv (GeneID 32492)	DRSC19681	1.95	8.33	6255	6614
cerv (GeneID 32492)	DRSC25320	1.52	0.79	6137	6609
CDK2AP1 (GeneID 32050)	DRSC19800	2.02	2.75	6690	6066
CDK2AP1 (GeneID 32050)	DRSC25637	1.35	1.56	5912	6074
CrzR (GeneID 39409)	DRSC09781	2.96	6.09	6345	6357
CrzR (GeneID 39409)	DRSC09782	11.2	3.54	6141	6700
cGlr1 (GeneID 36744)	DRSC06270	8.2	9.43	6698	6131
ppk6 (GeneID 37286)	DRSC06062	3.29	1.93	6056	6364
ppk6 (GeneID 37286)	DRSC29267	9.7	14	6185	5915
Rbp4 (GeneID 41668)	DRSC16818	1.32	0.74	6223	6641
Rbp4 (GeneID 41668)	DRSC27818	11	35.5	6712	5990
CG14562 (GeneID 40439)	DRSC11723	11.3	12.3	6656	6648
CG14864 (GeneID 41846)	DRSC14987	3.27	6.24	6242	6509
CSN8 (GeneID 49077)	DRSC02257	2.59	3.69	6102	5525
Ptp4E (GeneID 31425)	DRSC18701	5.32	3.68	5849	6270
Ugt35A1 (GeneID 41334)	DRSC16892	0.35	32.6	564	4922
Ugt35A1 (GeneID 41334)	DRSC25438	4.04	1.24	5916	6391
lov (GeneID 38007)	DRSC04279	18.7	16.9	5888	4466
lov (GeneID 38007)	DRSC04665	1.35	3.1	6941	7108
lov (GeneID 38007)	DRSC27208	1.93	5.4	5849	6108
